Pooled drug test results. Numbers come from NIAID ChemDB, via PubChem.

All rows: growth or infection tests; agent: HIV-1; read-out: inhibition

An empty or dashed field is not shown.

| smiles | tested at | strain | cell line | conditions | read by | value |
|---|---|---|---|---|---|---|
| NCC(=O)N1CCC[C@H]1C(=O)NCC(=O)N[C@H](C=O)CCCN=C(N)N | 250 µg/mL | IIIB | H9 |  | p24 | 11.97% |
| Cc1cn([C@H]2C[C@H](N=[N+]=[N-])[C@@H](CO)O2)c(=O)[nH]c1=O | 4 µM | SF162 R5 | PBL (activated) + PBL |  | RT activity | 100% |
| NCC(=O)N1CCC[C@H]1C(=O)NCC=O | 250 µg/mL | IIIB | H9 |  | syncytia | 100% |
| Cc1ccnc2c1NC(=O)c1cccnc1N2C1CC1 | 0.3 µM | IIIB | PBL (resting) + PBL |  | RT activity | 88% |
| CCCCCCCCCCCCCCCCOP(=O)(OC[C@H]1OC(O)[C@H](O)[C@@H](O)[C@@H]1O)OC[C@H]1O[C@@H](n2cc(C)c(=O)[nH]c2=O)C[C@@H]1N=[N+]=[N-] | 0.2 µM | LAV-Bru | U-937 | 7 d | RT activity | 0% |
| c1cc(CN2CCCNCCNCCCNCC2)ccc1CN1CCCNCCNCCCNCC1 | 0.5 µM | 92TH001 CLADE E R5 | PBMC |  | p24 | 60% |
| NC(=O)NO | 100 µM | IIIB | PBMC |  | p24 | 20% |
| CC(C)Nc1cccnc1N1CCN(C(=O)c2cc3cc(N=CN(C)C)ccc3[nH]2)CC1 | 1 µM | Seropositive clinical isolate C | PBMC |  | MTT | 100% |
| C/C(=C(/CCO)SS/C(CCO)=C(\C)N(C=O)Cc1cnc(C)nc1N)N(C=O)Cc1cnc(C)nc1N | 125 µM | IIIB | MOLT-4/HIV-1(IIIB) + MOLT-4 |  | p24 | 80% |
| O=C(O)P(=O)(O)O | 128 µM | IIIB | PBL | 14 d | RT activity | 91% |
| O=CCNC(=O)[C@@H]1CCCN1 | 25 µg/mL | IIIB | H9 |  | syncytia | 99% |
| CC(C)[C@H](NC(=O)c1ccc2ccccc2n1)C(=O)N[C@@H](Cc1ccccc1)[C@H](O)CN1CC[C@@H](OCc2ccncc2)C[C@H]1C(=O)NC(C)(C)C | 0.026 µM | Nevirapine-resistant | PBMC |  | p24 | 90% |
| Oc1ccc(/C=C/c2cc(O)cc(O)c2)cc1 | 5 µM | EJC-R2 | PBMC | clinical isolate | p24 | 0% |
| O=c1[nH]cnc2c1ncn2[C@H]1CC[C@@H](CO)O1 | 1 µM | IIIB | PBL (resting) + PBL |  | RT activity | 97% |
| O=C1N(Cc2ccc(CO)cc2)[C@H](Cc2ccccc2)[C@H](O)[C@@H](O)[C@@H](Cc2ccccc2)N1Cc1ccc(CO)cc1 | 0.16 µM | 2 clinical isolate | PBMC |  | p24 | 90% |
| CCC[C@@]1(CCc2ccccc2)CC(O)=C([C@H](CC)c2cccc(NS(=O)(=O)c3ccc(C(F)(F)F)cn3)c2)C(=O)O1 | 0.07 µM | Isolate N. Amer 3 | PBMC |  | p24 | 90% |
| NC(N)=NCCC[C@@H](C=O)NC(=O)CNC(=O)[C@@H]1CCCN1 | 250 µg/mL | ELI | HUT |  | p24 | 0% |
| Cc1cn([C@H]2C[C@H](N=[N+]=[N-])[C@@H](COP(=O)(O)OC[C@H]3OC(O)[C@H](O)[C@@H](O)[C@@H]3O)O2)c(=O)[nH]c1=O | 25 µM | LAV-Bru | CEM | 7 d | RT activity | 96% |
| O=S(=O)(O)c1cc(N=C=S)ccc1/C=C/c1ccc(N=C=S)cc1S(=O)(=O)O | 100 µg/mL | GB8 | JM |  | syncytia | 100% |
| NCC(=O)N1CCC[C@H]1C(=O)NCC(=O)NCC=O | 25 µg/mL | IIIB | H9 |  | syncytia | 85% |
| Cc1cn([C@H]2C[C@H](N=[N+]=[N-])[C@@H](COP(=O)(O)OC[C@H]3OC(O)[C@@H](O)[C@@H](O)[C@@H]3O)O2)c(=O)[nH]c1=O | 0.2 µM | LAV-Bru | CEM | 22 d | RT activity | 0% |

The first 3 rows once more:

NCC(=O)N1CCC[C@H]1C(=O)NCC(=O)N[C@H](C=O)CCCN=C(N)N ; tested at: 250 µg/mL ; strain: IIIB ; cell line: H9 ; read by: p24 ; value: 11.97%
Cc1cn([C@H]2C[C@H](N=[N+]=[N-])[C@@H](CO)O2)c(=O)[nH]c1=O ; tested at: 4 µM ; strain: SF162 R5 ; cell line: PBL (activated) + PBL ; read by: RT activity ; value: 100%
NCC(=O)N1CCC[C@H]1C(=O)NCC=O ; tested at: 250 µg/mL ; strain: IIIB ; cell line: H9 ; read by: syncytia ; value: 100%

Lines come from different laboratories, so protocols vary. Inhibition is in % at the dose shown (toxicity tests: loss of growth or viability).